# Measurements as given in patent publication US20250115620A1, “BRIDGED TRICYCLIC CARBAMOYLPYRIDONE COMPOUNDS AND USES THEREOF” (Gilead Sciences, Inc., priority 2022, published 2025).
# Several values for one entry are separate records, joined by “and”; a condition that tells them apart may be missing. Equal entries are not always repeated.
# System: pLAI reporter virus
# Type: cell-based, HIV
# Conditions: EC50 (50% HS)/EC50 (CCM)
smiles,measurement,value
"COC[C@@H]1CO[C@@]2(CC[C@H](C)N3C[C@H]2n2cc(C(=O)NCc4c(F)cc(F)cc4F)c(=O)c(O)c2C3=O)O1 (single isomer, unassigned) [168 (peak 1)]",RLUC 50% HS Shift,5×
"COC[C@@H]1CO[C@]2(CC[C@H](C)N3C[C@H]2n2cc(C(=O)NCc4c(F)cc(F)cc4F)c(=O)c(O)c2C3=O)O1 (single isomer, unassigned) [168 (peak 2)]",RLUC 50% HS Shift,26×
"C[C@H]1CC[C@@]2(OC[C@@H](Cc3ccccc3)O2)[C@H]2CN1C(=O)c1c(O)c(=O)c(C(=O)NCc3c(F)cc(F)cc3F)cn12 (single isomer, unassigned) [169 (peak 1)]",RLUC 50% HS Shift,7×
"C[C@H]1CC[C@]2(OC[C@@H](Cc3ccccc3)O2)[C@H]2CN1C(=O)c1c(O)c(=O)c(C(=O)NCc3c(F)cc(F)cc3F)cn12 (single isomer, unassigned) [169 (peak 2)]",RLUC 50% HS Shift,2×
"CO[C@H]1CS[C@]2(CC[C@H](C)N3C[C@H]2n2cc(C(=O)NCc4c(F)cc(F)cc4F)c(=O)c(O)c2C3=O)O1 (single isomer, unassigned) [170 (peak 1)]",RLUC 50% HS Shift,16×
"CO[C@@H]1CS[C@]2(CC[C@H](C)N3C[C@H]2n2cc(C(=O)NCc4c(F)cc(F)cc4F)c(=O)c(O)c2C3=O)O1 (single isomer, unassigned) [170 (peak 2)]",RLUC 50% HS Shift,15×
"CO[C@H]1CS[C@@]2(CC[C@H](C)N3C[C@H]2n2cc(C(=O)NCc4c(F)cc(F)cc4F)c(=O)c(O)c2C3=O)O1 (single isomer, unassigned) [170 (peak 3)]",RLUC 50% HS Shift,132×
"CO[C@@H]1CS[C@@]2(CC[C@H](C)N3C[C@H]2n2cc(C(=O)NCc4c(F)cc(F)cc4F)c(=O)c(O)c2C3=O)O1 (single isomer, unassigned) [170 (peak 4)]",RLUC 50% HS Shift,52×
"CC1=NO[C@@]2(CC[C@H](C)N3C[C@H]2n2cc(C(=O)NCc4ccc(F)cc4F)c(=O)c(O)c2C3=O)[C@H]1F (single isomer, unassigned) [Example 27 (peak 1)]",RLUC 50% HS Shift,877×
"CC1=NO[C@@]2(CC[C@H](C)N3C[C@H]2n2cc(C(=O)NCc4ccc(F)cc4F)c(=O)c(O)c2C3=O)[C@@H]1F (single isomer, unassigned) [Example 27 (peak 2)]",RLUC 50% HS Shift,534×
"CC1=NN(c2ccccc2)C2(CC[C@H](C)N3C[C@H]2n2cc(C(=O)NCc4c(F)cc(F)cc4F)c(=O)c(O)c2C3=O)C1 (single isomer, unassigned) [Example 90, (3′S,7′R)-12′-hydroxy-3′,5-dimethyl-1′,11′-dioxo-2-phenyl-N-(2,4,6-trifluorobenzyl)-1′,2,4,4′,5′,11′-hexahydro-3′H,7′H-spiro[pyrazole-3,6′-[2,7]methanopyrido[1,2-a][1,4]diazonine]-10′-carboxamide]",RLUC 50% HS Shift,17× and 9×
"C[C@H]1CC[C@]2(CC(=O)N(Cc3ccc(F)cc3)O2)[C@H]2CN1C(=O)c1c(O)c(=O)c(C(=O)NCc3c(F)cc(F)cc3F)cn12 (single isomer, unassigned) [Example 115]",RLUC 50% HS Shift,17×
"CC1=NO[C@@]2(CC[C@H](C)N3C[C@H]2n2cc(C(=O)NCc4ccc(F)cc4F)c(=O)c(O)c2C3=O)C1 [Example 1, (3'S,5S,7′R)—N-(2,4-difluorobenzyl)-12′-hydroxy-3,3′-dimethyl-1′,11′-dioxo-1′,4′,5′,11′-tetrahydro-3′H,4H,7′H-spiro[isoxazole-5,6′-[2,7]methanopyrido[1,2-a][1,4]diazonine]-10′-carboxamide]",RLUC 50% HS Shift,307× and 368×
"CC1=NO[C@]2(CC[C@H](C)N3C[C@H]2n2cc(C(=O)NCc4ccc(F)cc4F)c(=O)c(O)c2C3=O)C1 [Example 2, (3′S,5R,7′R)—N-(2,4-difluorobenzyl)-12′-hydroxy-3,3′-dimethyl-1′,11′-dioxo-1′,4′,5′,11′-tetrahydro-3′H,4H,7′H-spiro[isoxazole-5,6′-[2,7]methanopyrido[1,2-a][1,4]diazonine]-10′-carboxamide]",RLUC 50% HS Shift,4×
"CC1=NO[C@@]2(CC[C@H](C)N3C[C@H]2n2cc(C(=O)NCc4c(F)cc(F)cc4F)c(=O)c(O)c2C3=O)C1 [Example 3, (3′S,5S,7′R)-12′-hydroxy-3,3′-dimethyl-1′,11′-dioxo-N-(2,4,6-trifluorobenzyl)-1′,4′,5′,11′-tetrahydro-3′H,4H,7′H-spiro[isoxazole-5,6′-[2,7]methanopyrido[1,2-a][1,4]diazonine]-10′-carboxamide]",RLUC 50% HS Shift,356×
"CC1=NO[C@]2(CC[C@H](C)N3C[C@H]2n2cc(C(=O)NCc4c(F)cc(F)cc4F)c(=O)c(O)c2C3=O)C1 [Example 4, (3′S,5R,7′R)-12′-hydroxy-3,3′-dimethyl-1′,11′-dioxo-N-(2,4,6-trifluorobenzyl)-1′,4′,5′,11′-tetrahydro-3′H,4H,7′H-spiro[isoxazole-5,6′-[2,7]methanopyrido[1,2-a][1,4]diazonine]-10′-carboxamide]",RLUC 50% HS Shift,2×
"CC1=NO[C@]2(C1)C[C@H](F)[C@H](C)N1C[C@H]2n2cc(C(=O)NCc3ccc(F)cc3F)c(=O)c(O)c2C1=O [Example 5, (3′S,4′S,5R,7′R)—N-(2,4-difluorobenzyl)-4′-fluoro-12′-hydroxy-3,3′-dimethyl-1′,11′-dioxo-1′,4′,5′,11′-tetrahydro-3′H,4H,7′H-spiro[isoxazole-5,6′-[2,7]methanopyrido[1,2-a][1,4]diazonine]-10′-carboxamide]",RLUC 50% HS Shift,69×
"CC1=NO[C@@]2(CC[C@H](C)N3C[C@H]2n2cc(C(=O)NCc4ccc(F)c(Cl)c4F)c(=O)c(O)c2C3=O)C1 [Example 6, (3′S,5S,7′R)—N-(3-chloro-2,4-difluorobenzyl)-12′-hydroxy-3,3′-dimethyl-1′,11′-dioxo-1′,4′,5′,11′-tetrahydro-3′H,4H,7′H-spiro[isoxazole-5,6′-[2,7]methanopyrido[1,2-a][1,4]diazonine]-10′-carboxamide]",RLUC 50% HS Shift,2717×
"CC(C)C1=NO[C@@]2(CC[C@H](C)N3C[C@H]2n2cc(C(=O)NCc4ccc(F)cc4F)c(=O)c(O)c2C3=O)C1 [Example 7, (3′S,5S,7′R)—N-(2,4-difluorobenzyl)-12′-hydroxy-3-isopropyl-3′-methyl-1′,11′-dioxo-1′,4′,5′,11′-tetrahydro-3′H,4H,7′H-spiro[isoxazole-5,6′-[2,7]methanopyrido[1,2-a][1,4]diazonine]-10′-carboxamide]",RLUC 50% HS Shift,3×
"CCC1=NO[C@@]2(CC[C@H](C)N3C[C@H]2n2cc(C(=O)NCc4ccc(F)cc4F)c(=O)c(O)c2C3=O)C1 [Example 8, (3′S,5S,7′R)—N-(2,4-difluorobenzyl)-3-ethyl-12′-hydroxy-3′-methyl-1′,11′-dioxo-1′,4′,5′,11′-tetrahydro-3′H,4H,7′H-spiro[isoxazole-5,6′-[2,7]methanopyrido[1,2-a][1,4]diazonine]-10′-carboxamide]",RLUC 50% HS Shift,376×
C[C@H]1CC[C@]2(CC(CC(F)(F)F)=NO2)[C@H]2CN1C(=O)c1c(O)c(=O)c(C(=O)NCc3c(F)cc(F)cc3F)cn12 [Example 9],RLUC 50% HS Shift,292×
"C[C@H]1CC[C@]2(CC(CCCCCl)=NO2)[C@H]2CN1C(=O)c1c(O)c(=O)c(C(=O)NCc3c(F)cc(F)cc3F)cn12 [Example 10, (3′S,5S,7′R)-3-(4-chlorobutyl)-12′-hydroxy-3′-methyl-1′,11′-dioxo-N-(2,4,6-trifluorobenzyl)-1′,4′,5′,11′-tetrahydro-3′H,4H,7′H-spiro[isoxazole-5,6′-[2,7]methanopyrido[1,2-a][1,4]diazonine]-10′-carboxamide]",RLUC 50% HS Shift,6×
"C[C@H]1CC[C@]2(CC(c3ccccc3)=NO2)[C@H]2CN1C(=O)c1c(O)c(=O)c(C(=O)NCc3ccc(F)cc3F)cn12 [Example 11, (3′S,5S,7′R)—N-(2,4-difluorobenzyl)-12′-hydroxy-3′-methyl-1′,11′-dioxo-3-phenyl-1′,4′,5′,11′-tetrahydro-3′H,4H,7′H-spiro[isoxazole-5,6′-[2,7]methanopyrido[1,2-a][1,4]diazonine]-10′-carboxamide]",RLUC 50% HS Shift,9×
"C[C@H]1CC[C@]2(CC(Cc3ccccc3)=NO2)[C@H]2CN1C(=O)c1c(O)c(=O)c(C(=O)NCc3ccc(F)cc3F)cn12 [Example 12, (3′S,5S,7′R)-3-benzyl-N-(2,4-difluorobenzyl)-12′-hydroxy-3′-methyl-1′,11′-dioxo-1′,4′,5′,11′-tetrahydro-3′H,4H,7′H-spiro[isoxazole-5,6′-[2,7]methanopyrido[1,2-a][1,4]diazonine]-10′-carboxamide]",RLUC 50% HS Shift,32×
"C[C@H]1CC[C@]2(CC(c3ccccn3)=NO2)[C@H]2CN1C(=O)c1c(O)c(=O)c(C(=O)NCc3ccc(F)cc3F)cn12 [Example 13, (3′S,5S,7′R)—N-(2,4-difluorobenzyl)-12′-hydroxy-3′-methyl-1′,11′-dioxo-3-(pyridin-2-yl)-1′,4′,5′,11′-tetrahydro-3′H,4H,7′H-spiro[isoxazole-5,6′-[2,7]methanopyrido[1,2-a][1,4]diazonine]-10′-carboxamide]",RLUC 50% HS Shift,1×
"C[C@H]1CC[C@]2(CC(c3cccnc3)=NO2)[C@H]2CN1C(=O)c1c(O)c(=O)c(C(=O)NCc3ccc(F)cc3F)cn12 [Example 14, (3′S,5S,7′R)—N-(2,4-difluorobenzyl)-12′-hydroxy-3′-methyl-1′,11′-dioxo-3-(pyridin-3-yl)-1′,4′,5′,11′-tetrahydro-3′H,4H,7′H-spiro[isoxazole-5,6′-[2,7]methanopyrido[1,2-a][1,4]diazonine]-10′-carboxamide]",RLUC 50% HS Shift,5×
"C[C@H]1CC[C@]2(CC(C3CC3)=NO2)[C@H]2CN1C(=O)c1c(O)c(=O)c(C(=O)NCc3ccc(F)cc3F)cn12 [Example 15, (3′S,5S,7′R)-3-cyclopropyl-N-(2,4-difluorobenzyl)-12′-hydroxy-3′-methyl-1′,11′-dioxo-1′,4′,5′,11′-tetrahydro-3′H,4H,7′H-spiro[isoxazole-5,6′-[2,7]methanopyrido[1,2-a][1,4]diazonine]-10′-carboxamide]",RLUC 50% HS Shift,5×
